Measurements reported in PMC6268855, “New Trifluoromethyl Triazolopyrimidines as Anti-Plasmodiumfalciparum Agents” (Molecules, 2012).

test system: human hepatoma cell line (HepG2); format: cell-based; settings: selectivity index: ratio of MLD50 (HepG2) to IC50 (P. falciparum W2)
Description: For in vitro cytotoxicity experiments, the cell monolayer was trypsinized, washed with culture medium, distributed in a flat-bottomed 96-well plate (5 × 10^3 cells/well), and finally incubated for 18 h at 37 °C for cell adherence.
For cytotoxicity testing, we used the (3-(4,5-dimethylthiazol-2-yl)-2,5-diphenyltetrazolium bromide (MTT) assay, performed as described in the literature. The HepG2 cell line was incubated with 20 µL of the compounds in different concentrations (200–25 µg/mL) for 24 h in an atmosphere of 5% CO2 at 37 °C.
For the MTT assay, which evaluates mitochondrial viability, 20 µL of MTT solution (5 mg/mL) was added, and the plates were incubated for an additional 3 h. After incubation, the supernatant was carefully removed from the wells, followed by addition of 100 µL DMSO with thorough mixing. Optical densities at 570 and 630 nm (background) were determined by an ELISA reader.
Cell viability was expressed as the percentage of control absorbance obtained in untreated cells after subtracting the absorbance from appropriate background. Lastly, the minimum lethal dose for 50% of the cells (MLD50) was determined as previously described in the literature. The ratio between MLD50 and drug activity (IC50) in vitro was used to determine the selectivity index (SI).

Row | SMILES | SI MDL50/IC50
1 | Cc1cc(Nc2cccc3ccccc23)n2nc(C(F)(F)F)nc2n1 [Compound 4, 5-Methyl-7-(naphthalen-1-ylamine)-2-(trifluoromethyl)[1,2,4]triazolo[1,5-a]pyrimidine] | 148
2 | Cc1cc(Nc2ccccc2)n2nc(C(F)(F)F)nc2n1 [Compound 6, 5-Methyl-7-phenylamine-2-(trifluoromethyl)[1,2,4]triazolo[1,5-a]pyrimidine] | >227
3 | Cc1cc(Nc2cccc(Cl)c2)n2nc(C(F)(F)F)nc2n1 [Compound 7, 7-(3-Chlorophenylamine)-5-methyl-2-(trifluoromethyl)[1,2,4]triazolo[1,5-a]pyrimidine] | 203
4 | Cc1cc(Nc2ccc(Cl)cc2Cl)n2nc(C(F)(F)F)nc2n1 [Compound 9, 7-(2,4-Dichlorophenylamine)-5-methyl-2-(trifluoromethyl)[1,2,4]triazolo[1,5-a]pyrimidine] | 118
5 | COc1ccc(Nc2cc(C)nc3nc(C(F)(F)F)nn23)cc1 [Compound 11, 7-(4-Methoxyphenylamine)-5-methyl-2-(trifluoromethyl)[1,2,4]triazolo[1,5-a]pyrimidine] | >1,547
6 | Cc1cc(Nc2cc(Cl)cc(Cl)c2)n2nc(C(F)(F)F)nc2n1 [Compound 13, 7-(3,5-Dichlorophenylamine)-5-methyl-2-(trifluoromethyl)[1,2,4]triazolo[1,5-a]pyrimidine] | 218
7 | COc1cc(Nc2cc(C)nc3nc(C)nn23)cc(OC)c1 [Compound 14, 7-(3,5-Dimethoxyphenylamine)-2,5-dimethyl[1,2,4]triazolo[1,5-a]pyrimidine] | 134
8 | Cc1cc(-n2cccn2)n2nc(C(F)(F)F)nc2n1 [Compound 24, 5-Methyl-7-(1H-pyrazol-1-yl)-2-(trifluoromethyl)[1,2,4]triazolo[1,5-a]pyrimidine] | >355
